Measured values from several laboratories, pooled; numbers as filed in NIAID ChemDB.

Common to all: cytotoxicity tests; cells: MT-4; endpoint: CC50

CCn: concentration that lowers growth or viability of the cells by n%. An empty or dashed field is not shown. Neighbouring rows are from separate reports.

smiles | method | result
S=C(Nc1nc2ccccc2s1)NC1CC2CCC1C2 | MTT | 46 µM
CCn1nc(CC(=O)N/N=C/c2ccco2)nc1C | - | 104 µg/mL
CCOC(=O)c1c([N+](=O)[O-])c(-c2ccccc2)n(COCCOC(C)=O)c1-c1ccccc1 | MTT | 96 µM
O=C1/C(=N\n2c(-c3ccncc3)n[nH]c2=S)c2ccccc2N1CN1CCOCC1 | - | 13.8 µM
CN(CC1c2nc(C(=O)NCc3ccc(F)cc3)c(O)c(=O)n2CCN1C)C(=O)c1cccc[n+]1[O-] | microscopy | >10 µM
Cc1cc(C#N)cc(C)c1Oc1nc(Nc2ccc(C#N)cc2)ncc1SCC(=O)NCC1CCCO1 | MTT | 24.7 µM
CC1(C)Cc2c(Br)c(Br)c(Br)c(OCCCN3CCN(c4ccccn4)CC3)c2O1 | MTT | 47 µM
C#C[C@]1(CO)O[C@@H](n2cc(Cl)c3c(N)ncnc32)C[C@@H]1O | ATP / luminescence | >8.4 µM
O=C1/C(=N\n2c(-c3ccncc3)n[nH]c2=S)c2cc(Cl)ccc2N1CN1CCCCC1 | - | 10.8 µM
CC(C)[C@H](NC(=O)N(C)Cc1cncs1)C(=O)N[C@@H](Cc1ccccc1)[C@H](O)CN1CCN(Cc2cncs2)C[C@H]1C(=O)NC(C)(C)C | - | >100 µM
O=C1/C(=N\n2c(-c3ccncc3)n[nH]c2=S)c2cc(Br)ccc2N1CN1CCOCC1 | - | 10.9 µM
CC(C)C([NH3+])C(=O)OC(C)C1C/C=C/CCC(O)C(C)(C)C2CCC(C)C3(O2)O[B-]24OC3C(=O)OC3COC(CCCC(O)C(C)(C)C5CCC(C)C(O5)(O2)C(O4)C(=O)O1)C3 | - | 0.22 µM
CCCCCCCCCCCCCCCCCC(=O)N[C@@H](CO[C@@H]1O[C@H](COS(=O)(=O)O)[C@@H](OS(=O)(=O)O)[C@H](OS(=O)(=O)O)[C@H]1OS(=O)(=O)O)C(=O)NCCCCCCCCCCCCCC | - | <100 µg/mL
O=[N+]([O-])c1c(-c2ccccc2)c(-c2ccccc2)n(COCCO)c1-c1ccccc1 | MTT | 43 µM
Cc1cc(=O)oc2c(C(C)OC(=O)C34CCC(C)(C(=O)O3)C4(C)C)c(OC(C)C)ccc12 | - | 20 µM
CN1CCn2c(nc(C(=O)NCc3ccc(F)cc3)c(O)c2=O)C(N(C)S(=O)(=O)N(C)C)C1 | microscopy | >1 µM
O=C1CSC(c2c(F)cccc2Cl)N1c1cc(Cl)cc(Cl)c1 | - | 48.05 µM
CCn1nc(CC(=O)NN=C(C)C)nc1C | - | 107 µg/mL
Cc1cn([C@H]2C[C@H](N=[N+]=[N-])[C@@H](CO)O2)c(=O)[nH]c1=O | - | 45 µM
Cc1cc(C#N)cc(C)c1Oc1ccnc(Nc2ccc(CNC3CCN(C(=O)OC(C)(C)C)CC3)cc2)n1 | MTT | 3.51 µM
O=C1CS/C(=N\c2nc3ccccc3s2)N1c1ccc(I)cc1 | MTT | 29 µM
CC1(C)c2nc(C(=O)NCc3ccc(F)cc3)c(O)c(=O)n2CCN1Cc1cn[nH]c1 | microscopy | >1 µM
O=C1CNS(=O)(=O)c2cc(Cl)ccc2N1 | MTT | ≥200 µM
CN(C)C(=O)C(=O)N(C)C1CN(CC2CC2)CCn2c1nc(C(=O)NCc1ccc(F)cc1)c(O)c2=O | microscopy | >1 µM
CC1=C(C)CC(COCP(=O)(O)O)(n2cnc3c(N)ncnc32)C1 | XTT | >100 µM
CC(C)c1nc(COC(=O)N[C@H](C(=O)N[C@@H](Cc2ccccc2)[C@H](O)CN2CCN(Cc3cncs3)C[C@H]2C(=O)NC(C)(C)C)C(C)C)cs1 | - | 57 µM
Nc1ccn([C@@H]2CO[C@H](CO)[C@@H](O)C2)c(=O)n1 | - | 1.1 µg/mL
CC(C)=CCN1C(C)C(=O)Nc2ccc(Cl)cc2S1(=O)=O | MTT | >200 µM
Nc1nc2c(ncn2[C@@H]2CO[C@H](CO)[C@@H](O)C2)c(=O)[nH]1 | - | 21 µg/mL
CC(C)C(N)C(=O)O[C@@H](C[C@@H](Cc1ccccc1)C(=O)N[C@H]1c2ccccc2C[C@H]1O)CN1CCN(Cc2cccnc2)C[C@H]1C(=O)NC(C)(C)C | MTT | >100 µM
CCOC(=O)CN(CC)S(=O)(=O)c1cc(Cl)ccc1N | MTT | >200 µM
O=C(/C=C(\O)c1ncn[nH]1)c1ccc(Cc2ccc(F)cc2)o1 | - | 12 µM
COc1ccc(N(C)C(=O)[C@H](Cc2cc(F)cc(F)c2)NC(=O)CN2CCNCC2=O)cc1 | MTT | >272 µM
Cc1ncc(CO)c(CO)c1O | - | 3000 µM
COc1cccc(N2C(=O)CSC2c2c(F)cccc2Cl)c1 | - | 56.54 µM
C#C[C@]1(CO)O[C@@H](n2ccc3c(N)nc(F)nc32)C[C@@H]1O | ATP / luminescence | >8.4 µM
CC(c1ccccc1)N1C(=O)CS/C1=N\c1nc2ccccc2s1 | MTT | 84 µM
Cc1cc(C#N)cc(C)c1Oc1cc(Cl)nc(Nc2ccc(CN3CCOCC3)cc2)c1 | MTT | 7 µM
O=C1CNS(=O)(=O)c2cc(Cl)cc([N+](=O)[O-])c2N1 | MTT | >200 µM
CCCCCCCCCCCCOCCO[C@@H]1O[C@H](COS(=O)(=O)O)[C@@H](O[C@@H]2O[C@H](COS(=O)(=O)O)[C@H](OS(=O)(=O)O)[C@H](OS(=O)(=O)O)[C@H]2OS(=O)(=O)O)[C@H](OS(=O)(=O)O)[C@H]1OS(=O)(=O)O | - | >100 µg/mL
Cc1ccccc1CN1C(C)C(=O)Nc2ccc(Cl)cc2S1(=O)=O | MTT | >200 µM
CN(C)CN1C(=O)/C(=N\n2c(-c3ccncc3)n[nH]c2=S)c2ccccc21 | - | 10.3 µM
C=CCNC(=O)CSc1cnc(Nc2ccc(C#N)cc2)nc1Oc1c(C)cc(C#N)cc1C | MTT | 30.4 µM
Cc1ccnc2c1NC(=O)c1cccnc1N2C1CC1 | MTT | 0.82 µg/mL
CC1(C)Cc2c(Br)c(Br)c(Br)c(O)c2O1 | MTT | 60 µM
Cc1cc(C#N)cc(C)c1Oc1ccnc(Nc2ccc(CN3CCC(NC(=O)OC(C)(C)C)CC3)cc2)n1 | MTT | 4.34 µM
Cc1ccc(N2C(=O)CS/C2=N\c2nc3ccccc3s2)cc1 | MTT | >100 µM
CCc1cc(=O)c2ccc3c(c2o1)[C@@H](OC(=O)C12CCC(C)(C(=O)O1)C2(C)C)[C@@H](OC(=O)C12CCC(C)(C(=O)O1)C2(C)C)C(C)(C)O3 | - | 9.27 µM
Cc1cc(C#N)cc(C)c1Oc1nc(Nc2ccc(C#N)cc2)ncc1SCC(=O)NCc1ccc(O)cc1 | MTT | 23.2 µM
CCN1C(C)Cn2c(=S)[nH]c3cc(Cl)cc(c32)S1(=O)=O | MTT | 93 µM
CC(=O)c1ccc(N2CCN(c3cc4c(cc3N)c(=O)c(C(=O)O)cn4C)CC2)cc1 | MTT | 0.157 µg/mL
O=C1CSC(c2c(Cl)cccc2Cl)N1c1cccc(Br)c1 | - | 27.78 µM
CCn1nc(Cc2n[nH]c(=S)o2)nc1C | - | 69.38 µg/mL
Cl.NCCn1nnc2ccccc21 | MTT | >100 µM
CC1C(=O)Nc2ccc(Cl)cc2S(=O)(=O)N1CC1CC1 | MTT | >200 µM
C#C[C@]1(CO)O[C@@H](c2cnc3c(N)ncnn23)C[C@@H]1O | ATP / luminescence | >8.4 µM
CC1=C(C)CC(COCP(=O)(OCCSC(=O)C(C)(C)C)OCCSC(=O)C(C)(C)C)(n2ccc(N)nc2=O)C1 | XTT | 44 µM
S=C(Nc1ccc(Cl)c(Cl)c1)Nc1nc2ccccc2s1 | MTT | 15 µM
CCCCCCCCCCCCCCCCCC(=O)N[C@@H](CO[C@@H]1O[C@H](COS(=O)(=O)O)[C@H](OS(=O)(=O)O)[C@H](OS(=O)(=O)O)[C@H]1OS(=O)(=O)O)C(=O)NCCCCCCCCCCCCCC | - | <100 µg/mL
Cc1ncc(COP(=O)(O)O)c(C=O)c1O | - | 1250 µM
CC(C)=CCN(C(C)C(=O)O)S(=O)(=O)c1cc(Cl)ccc1[N+](=O)[O-] | MTT | ≥200 µM
C#C[C@]1(CO)O[C@@H](n2ccc3c(N)nc(Cl)nc32)C[C@@H]1O | ATP / luminescence | >8.4 µM
CCc1nc(CC(=O)NN=C(C)C)nn1CC | - | 112 µg/mL
CCOC(=O)C(C)N(CC=C(C)C)S(=O)(=O)c1cc(Cl)ccc1N | MTT | >200 µM
CC(C)c1nc(COC(=O)N[C@H](C(=O)N[C@@H](Cc2ccccc2)[C@H](O)CN2CCN(Cc3ccccc3)C[C@H]2C(=O)NC(C)(C)C)C(C)C)cs1 | - | 45 µM
Fc1ccccc1NC(=S)Nc1nc2ccccc2s1 | MTT | 27 µM
CCCCCCCCCCCCCCCCCCCCCCOCCCO[C@@H]1O[C@H](COS(=O)(=O)O)[C@H](OS(=O)(=O)O)[C@H](OS(=O)(=O)O)[C@H]1OS(=O)(=O)O | - | >100 µg/mL
CC(C)[C@H](NC(=O)OCc1cncs1)C(=O)N[C@@H](Cc1ccccc1)[C@H](O)CN1CCN(Cc2cncs2)C[C@H]1C(=O)NC(C)(C)C | - | >100 µM
Cc1cn([C@@H]2CO[C@H](CO)[C@@H](O)C2)c(=O)[nH]c1=O | - | >100 µg/mL
O=C1CSC(c2c(F)cccc2Cl)N1c1cccc(Cl)c1 | - | 30.1 µM
CCCCCCCCCCCCOCCO[C@@H]1O[C@H](COS(=O)(=O)O)[C@H](OS(=O)(=O)O)[C@H](OS(=O)(=O)O)[C@H]1OS(=O)(=O)O | - | >100 µg/mL
CC(=O)NC1C(O)OC(CO)C(O)C1OC1OC(C(=O)[O-])C(OC2OC(CO)C(O)C(OC3OC(C(=O)[O-])C(O)C(O)C3O)C2NC(C)=O)C(O)C1O.[Na+].[Na+] | - | >125 µg/mL
NNC(=O)Cc1nc2n(n1)CCCCC2 | - | 125 µg/mL
C#C[C@]1(CO)O[C@@H](c2ccc3c(N)ncnn23)C[C@@H]1O | ATP / luminescence | >8.4 µM
CC1(C)c2nc(C(=O)NCc3ccc(F)cc3)c(O)c(=O)n2CCN1Cc1nnco1 | microscopy | >1 µM
O=C(CCN1C(=O)/C(=C/c2cccc(Br)c2)SC1=S)Nc1ccccc1O | - | 125 µM
Cc1cc(C#N)cc(C)c1Oc1ccnc(Nc2ccc(CN3CCC(NS(N)(=O)=O)CC3)cc2)n1 | MTT | 3.72 µM
CN(C)CN1C(=O)/C(=N\n2c(-c3ccncc3)n[nH]c2=S)c2cc(Cl)ccc21 | - | 12.2 µM
C#C[C@]1(CO)O[C@@H](n2ccc3c(N)nc(N)nc32)C[C@@H]1O | ATP / luminescence | >8.4 µM
O=C1CSC(c2c(Cl)cccc2Cl)N1c1cc(Cl)cc(Cl)c1 | - | 18.06 µM
CCOC(=O)c1c([N+](=O)[O-])c(-c2ccccc2)n(COCCOC(C)=O)c1C | MTT | 169 µM
COC(=O)CCS(=O)(=O)c1cnc(Nc2ccc(C#N)cc2)nc1Oc1c(C)cc(C#N)cc1C | MTT | 13.6 µM
C#C[C@]1(CO)O[C@@H](n2cc(C)c3c(N)ncnc32)C[C@@H]1O | ATP / luminescence | >8.4 µM
O=C1/C(=N\n2c(-c3ccncc3)n[nH]c2=S)c2cc(Cl)ccc2N1CN1CCOCC1 | - | 13.6 µM
CC(=O)OCCOCn1c(-c2ccccc2)cc([N+](=O)[O-])c1-c1ccccc1 | MTT | 37 µM
Cc1cn(CCCCO[C@H]2C=C[C@@H](CO)O2)c(=O)[nH]c1=O | MTT | 33 µg/mL

Repeating the first 7 entries:

S=C(Nc1nc2ccccc2s1)NC1CC2CCC1C2 ; method: MTT ; result: 46 µM
CCn1nc(CC(=O)N/N=C/c2ccco2)nc1C ; result: 104 µg/mL
CCOC(=O)c1c([N+](=O)[O-])c(-c2ccccc2)n(COCCOC(C)=O)c1-c1ccccc1 ; method: MTT ; result: 96 µM
O=C1/C(=N\n2c(-c3ccncc3)n[nH]c2=S)c2ccccc2N1CN1CCOCC1 ; result: 13.8 µM
CN(CC1c2nc(C(=O)NCc3ccc(F)cc3)c(O)c(=O)n2CCN1C)C(=O)c1cccc[n+]1[O-] ; method: microscopy ; result: >10 µM
Cc1cc(C#N)cc(C)c1Oc1nc(Nc2ccc(C#N)cc2)ncc1SCC(=O)NCC1CCCO1 ; method: MTT ; result: 24.7 µM
CC1(C)Cc2c(Br)c(Br)c(Br)c(OCCCN3CCN(c4ccccn4)CC3)c2O1 ; method: MTT ; result: 47 µM